# PubChem BioAssay AID1224833 – University of Georgia – 2016
# Screen: 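Human genes whose knock-down alters rotavirus replication in monkey cells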 (primary screen)
# System: monkey MA104 kidney cells
# Reagents: siRNA pool against human genes, 50 nM
# Time to read-out: 48 h knock-down before infection; read 24 h after infection
# Treatment: infection with rotavirus strain RV3 two days after transfection; infectious dose for this stage not given
# Read-out: 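z-score of rotavirus antigen signal per well, from a fluorescent immunoassay, relative to non-targeting control wells on the same plate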
# Reading the numbers: z-score vs non-targeting control: higher = more rotavirus replication than with non-targeting control
# Rule for the call: In these data the active calls have z-score vs non-targeting control at about -1 or lower, or at about 1 or higher
# Meaning of the calls: active = z-score beyond 1 either way; inactive = z-score within 1 of zero
# This is a random part of about 12,000 reagents. About 5,600 of them (46%) count as active. 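Active calls cover z-scores past 1 in both directions, so they include lowered as well as raised rotavirus replication.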 Entries without a mark were called inactive.
gene knocked down,z-score vs non-targeting control
LHFPL6 (GeneID 10186),2.89 (active)
TCL1A (GeneID 8115),-1.25 (active)
CLTRN (GeneID 57393),-0.219
EHD1 (GeneID 10938),-1.62 (active)
XCL2 (GeneID 6846),0.538
DNAH3 (GeneID 55567),1.01 (active)
CERS5 (GeneID 91012),-0.907
PCDHGA4 (GeneID 56111),-0.124
VAMP8 (GeneID 8673),-0.236
PDLIM7 (GeneID 9260),1.03 (active)
ZNF563 (GeneID 147837),-0.925
METTL4 (GeneID 64863),-0.626
NIPBL (GeneID 25836),-0.205
ADH1B (GeneID 125),0.682
FCMR (GeneID 9214),-1.27 (active)
PRR3 (GeneID 80742),-1.1 (active)
RAB19 (GeneID 401409),-1.31 (active)
EPC1 (GeneID 80314),-0.88
COLEC12 (GeneID 81035),0.847
ADPRH (GeneID 141),0.971
ZNF668 (GeneID 79759),-1.16 (active)

Records above whose target name begins with P or p (3):
gene knocked down,z-score vs non-targeting control
PCDHGA4 (GeneID 56111),-0.124
PDLIM7 (GeneID 9260),1.03 (active)
PRR3 (GeneID 80742),-1.1 (active)

More entries follow:
gene knocked down,z-score vs non-targeting control
RAB10 (GeneID 10890),-0.712
ZPBP (GeneID 11055),0.298
TOLLIP (GeneID 54472),-0.852
NOC3L (GeneID 64318),1.68 (active)
RAB15 (GeneID 376267),0.156
ZMIZ1 (GeneID 57178),-1.91 (active)
H2BC10 (GeneID 8346),0.0288
EID3 (GeneID 493861),-0.132
COX5B (GeneID 1329),-1.55 (active)
TMEM42 (GeneID 131616),0.479
AMIGO1 (GeneID 57463),1.15 (active)
ANGPT4 (GeneID 51378),-0.765
CYP4B1 (GeneID 1580),-0.516
PXDN (GeneID 7837),1.06 (active)
UTP25 (GeneID 27042),-1.21 (active)
QSER1 (GeneID 79832),-2.38 (active)
ERCC6L (GeneID 54821),1.38 (active)
GPR146 (GeneID 115330),0.984
LETM1 (GeneID 3954),0.0055
USP17L2 (GeneID 377630),-1.31 (active)
ZNF701 (GeneID 55762),-1.21 (active)
SNPH (GeneID 9751),0.612
ZNF571 (GeneID 51276),-0.358
SLC67A1-AS (GeneID 5003),1.34 (active)
